A mixed list of measured activities; the numbers were collected in NIAID ChemDB.

All rows: whole-cell or culture tests; agent: HIV-1; measure: EC50

An empty or dashed field is not shown. ECn is the concentration giving n% inhibition of infection, replication or growth. Neighbouring rows are from separate reports.

SMILES | strain | mutations | cell line | read by | setting | result
Cc1cc(O)cc(S(=O)(=O)c2cccc(N)c2C#N)c1 |  | RT-Y188C | HeLa + HELA CD4+ | β-galactosidase |  | 0.4 µM
Cc1nnc(SCC(=O)Nc2ccccc2Br)n1-c1cccc2ccccc12 | NL4-3 | RT-Y188L | HeLa + HeLa-JC53 | luciferase |  | 0.72 µM
Cc1cn([C@H]2C=C[C@@H](CO)O2)c(=O)[nH]c1=O | NL4-3 |  | Primary T lymphocytes |  |  | 1.245 µM
Cc1ccccc1Cc1cccc(C(=O)CC(=O)C(=O)O)c1 |  | INTG-T66I S153Y |  | p24 |  | 1.2 µM
COc1ccc(-c2c3c(cc4cc(OC)c(OC)cc24)CN(CC(C)C)C3)cc1OC | CONB/pNL43E-Luc+ |  | U87 (CD4+ CCR5+) + U87 | luciferase |  | 0.01 µg/mL
Nc1nc2c(ncn2CC2(OCP(=O)(O)O)CC2)c(=O)[nH]1 | NL4-3 |  | HT4 + HeLa | plaque count |  | ~100 µM
CC(C)(C)NC(=O)[C@H]1N(C(=O)[C@@H](O)[C@H](Cc2ccccc2)NC(=O)[C@H](CC(N)=O)NC(=O)COc2cccc3ccccc23)CSC1(C)C | AZT-insensitive |  | PBMC(PHA STIM.) + PBMC | p24 |  | 0.17 µM
CCCN(C(=O)OCc1ccccc1)C1CCN(CCC(CN(C)S(=O)(=O)c2ccccc2)c2ccccc2)CC1 | BaL |  | MAGI + MAGI-CCR5 |  |  | >0.3 µM
Cc1ccc(-n2c(C)nnc2SCC(=O)Nc2ccccc2Cl)cc1 | NL4-3 | RT-K103N Y181C | HeLa + HeLa-JC53 | luciferase |  | 0.15 µM
Nc1nc(NC2CC2)c2ncn([C@H]3C=C[C@@H](CO)C3)c2n1 | NL4-3 |  | CEM-GFP | flow cytometry |  | 0.08975 µM
Cc1ccc(-c2ccc3c(c2)C=C(C(=O)Nc2ccc(C[N+](C)(C)C4CCC(=O)CC4)cc2)CCO3)cc1 | JR-FL |  | MAGI + MAGI-CCR5 | β-galactosidase |  | 0.0058 µM
O=c1[nH]cnc2c1ncn2[C@H]1CC[C@@H](CO)O1 | NL4-3 |  | Jurkat cells |  |  | 2.045 µM
c1ccc(CNc2nc(-c3cccnc3)cs2)cc1 | NL4.3-XCS | 41-215 (AZT-resistant) | HeLa CD4 | β-galactosidase |  | 0.533 µM
Cc1ccc(-c2ccc3c(c2)C=C(C(=O)Nc2ccc(C[N+](C)(C)C4CCOCC4)cc2)CCC3)cc1 | JR-FL |  | MAGI + MAGI-CCR5 | β-galactosidase |  | 0.0012 µM
CN(C)c1ccc(Nc2c3ccc(NC(=O)CCN4CCCC4)cc3nc3cc(NC(=O)CCN4CCCC4)ccc23)cc1 |  |  | HeLaP4 | β-galactosidase |  | 8 µM
Cc1ccnc2c1NC(=O)c1cccnc1N2C1CC1 | NL4-3 | RT-K103N | CEM + CEM-SS | XTT |  | >2 µM
CC(=O)N1CCC(C(=O)N(CCCN2CCC(Cc3ccc(C(N)=O)cc3)CC2)c2ccc(C)c(Cl)c2)CC1 | R5 subtype C_1 recombinant |  | U87 (CD4+ CCR5+) + U87 | luciferase |  | 0.014 µM
C1CNCCNCCCN(CCCN2CCCNCCNCCCNCC2)CCNC1 | Pseudotype (cocal virus genome) |  | HELA/CD4 + HELA CD4+ |  | pseudotyped | 2 µg/mL
CC(C)(C)C(=O)OCOP(=O)(COC1(Cn2cnc3c(=O)[nH]c(N)nc32)CC1)OCOC(=O)C(C)(C)C | NL4-3 |  | HT4 + HeLa | plaque count |  | <10 µM
COC(=O)[C@H](C)NP(=O)(OC[C@@H]1C=C[C@H](n2cc(C)c(=O)[nH]c2=O)O1)Oc1ccc(Br)cc1 | G704-2 NRTI resistant | RT-M41L D67N K70R L210W T215Y | PBMC | p24 |  | 0.0032 µM
COc1cc(C(F)(F)F)cc(S(=O)(=O)c2cccc(N)c2C#N)c1 |  | RT-K103N Y181C | HeLa + HELA CD4+ | β-galactosidase |  | >50 µM
Cc1cn([C@H]2C[C@H](N=[N+]=[N-])[C@@H](CO)O2)c(=O)[nH]c1=O | CC5 Clinical isolates |  |  | p24 |  | 0.008 µM
COc1ccc(NC(=O)CSc2nnnn2-c2c(C)cc(C)cc2C)cc1Cl | NL4.3-XCS | M184V (3TC-resistant) | HeLa CD4 | β-galactosidase |  | 0.382 µM
O=C1Nc2ccc(Cl)cc2[C@@](C#CC2CC2)(C(F)(F)F)O1 | NL4-3 |  | CEM-GFP | p24 / ELISA |  | 0.000007 µM
Nc1ncc2ncn(CC3(OCP(=O)(O)O)CC3)c2n1 | NL4-3 |  | HT4 + HeLa | plaque count |  | >100 µM
Nc1ccn([C@@H]2CC[C@H](CO)O2)c(=O)n1 | RTMC (RT D67N K70R T215F K219Q) | RT-D67N K70R T215F K219Q | HT4 + HT4 LacZ-1 |  |  | 4 µM
Cc1cn([C@H]2C[C@H](N=[N+]=[N-])[C@@H](CO)O2)c(=O)[nH]c1=O | A036C (RT-T215Y) | RT-T215Y | HT4 + HT4-6C | plaque count |  | 0.6 µM
Cc1ccnc2c1NC(=O)c1cccnc1N2C1CC1 | NL4-3 | +Vpx | Primary T lymphocytes |  |  | 1.256 µM
Cc1cc(C#Cc2cccc(N)c2)cc(C)c1Oc1ccnc(NC2CCN(c3cccc(C(N)=O)c3)CC2)n1 | IIIB | E138K | MT-4 | MTT |  | 0.146 µM
CCCN(C)C(=O)Oc1nsnc1-c1c(Cl)ccc(N)c1Cl | IIIB | RT-V189I T240I | MAGI | MTT |  | >10 µM
CC(C)=CCOc1cc(NC(=S)c2ccoc2C)ccc1Cl | IIIB | A-17-resistant | TZM-bl | luminescence |  | >10 µM
Cc1cn([C@H]2C[C@H](N=[N+]=[N-])[C@@H](CO)O2)c(=O)[nH]c1=O | NL4.3-XCS | 188L-190A (nevirapine-resistant) | HeLa CD4 | β-galactosidase |  | 0.113 µM
Cc1c(Sc2ccccc2)n(COCCO)c(=O)[nH]c1=O | BaL |  | PB macrophages (day 21) + Macrophage | p24 |  | 8.8 µM
NOCc1c(F)cccc1Cl | SUM9 |  | HELA/CD4 + HELA CD4+ | β-galactosidase |  | 1.4 µg/mL
O=c1[nH]cnc2c1ncn2[C@H]1CC[C@@H](CO)O1 | HXB2 | RT-M184I | HELA/CD4 + HELA CD4+ | plaque count |  | 3.82 µM
Nc1ccn([C@H]2CC[C@@H](CO)O2)c(=O)n1 | IIIB |  | PBL | p24 |  | 0.003 µM
Cc1cn([C@H]2C[C@H](N=[N+]=[N-])[C@@H](CO)O2)c(=O)[nH]c1=O | UC38-resistant (RT Y181C) | RT-Y181C | CEM + CEM-SS | XTT |  | 0.01 µM
CCN(C(=O)OCc1ccc([N+](=O)[O-])cc1)C1CCN(CC[C@](C)(CN(C)S(=O)(=O)c2ccccc2)c2ccccc2)CC1 | YU-2 (M-tropic) |  | MAGI + MAGI-CCR5 |  |  | <0.05 µM
Cc1cn([C@H]2C[C@H](N=[N+]=[N-])[C@@H](CO)O2)c(=O)[nH]c1=O | 7324-1 NRTI resistant recombinant | RT-M41L D67N T69N K70R T215F K219E | PBMC | RT activity |  | 0.108 µM
Cc1cn([C@H]2C[C@H](N=[N+]=[N-])[C@@H](CO)O2)c(=O)[nH]c1=O | HXB2D |  | HT4LACZ-1 + HT4 LacZ-1 | plaque count |  | 0.02 µM
Cc1cc(C#N)cc(C)c1Oc1nc(Nc2ccc(C#N)cc2)nc(N)c1Br | NL4-3 |  | CEM-GFP | flow cytometry |  | 0.00083 µM
O=C(NCc1ccc(F)cc1)c1nc(N2CCCCS2(=O)=O)c2cccnc2c1O | HXB2 |  |  | p24 |  | 0.004 µM
Nc1nc(=O)n([C@@H]2CS[C@H](CO)O2)cc1F | HXB2 |  | HELA/CD4 + HELA CD4+ | plaque count |  | 0.105 µM
Cc1ccc(-c2ccc3c(c2)C=C(C(=O)Nc2ccc(C[N+]4(C)CCCCC4)cc2)CCO3)cc1 | JR-FL |  | MAGI + MAGI-CCR5 | β-galactosidase |  | 0.045 µM
Cc1ccc(NC(=O)CSc2nnc(C)n2-c2ccc(Cl)c3ccccc23)c(Cl)c1 | NL4-3 | RT-K103N Y181C | HeLa + HeLa-JC53 | luciferase |  | 0.19 µM
Cc1cc(C#Cc2ccc(N)cc2)cc(C)c1Oc1ccnc(Nc2ccc(C#N)cc2)n1 | IIIB | RES056 | MT-4 | MTT |  | >5.385 µM
Cc1ccnc2c1NC(=O)c1cccnc1N2C1CC1 | NNRTI-resistant (RT V108I Y181C) | RT-V108I Y181C | MAGI | β-galactosidase |  | >10 µM
O=c1[nH]cnc2c1ncn2[C@H]1CC[C@@H](CO)O1 | HXB2D (RT-K65R) | RT-K65R | CBMC | p24 |  | 22.7 ± 0.9 µM
Nc1ccn([C@H]2CC[C@@H](CO)O2)c(=O)n1 | HXB2 | RT-L74M | HELA/CD4 + HELA CD4+ | plaque count |  | 0.6 µM
CC(C)Nc1cccnc1N1CCN(C(=O)c2cc3cc(NS(C)(=O)=O)ccc3[nH]2)CC1 | IIIB | L100I | MT-4 | MTT |  | 3.472 µM
Cc1ccc(-c2ccc3c(c2)C=C(C(=O)Nc2ccc(C[N+]4(C)CCCCC4)cc2)CCC3)cc1 | JR-FL |  | MAGI + MAGI-CCR5 | β-galactosidase |  | 0.035 µM
Cc1cn([C@H]2C[C@H](N=[N+]=[N-])[C@@H](CO)O2)c(=O)[nH]c1=O | M709-1 Clinical isolate ZDV-resistant | RT-L210W T215Y | HT4 + HeLa | syncytia |  | 3 µM
Cc1ccnc2c1NC(=O)c1cccnc1N2C1CC1 | NL4-3 |  | CEM-GFP | flow cytometry |  | 0.000473 µM
Cc1cn([C@H]2C[C@H](N=[N+]=[N-])[C@@H](CO)O2)c(=O)[nH]c1=O | SUM13 |  | HELA/CD4 + HELA CD4+ | β-galactosidase |  | 8 µg/mL
Cc1cc(Br)cc(S(=O)(=O)c2cccc(N)c2C#N)c1 |  | RT-P236L | HeLa + HELA CD4+ | β-galactosidase |  | 0.005 µM
Cc1cc(/C=C/c2ccccc2)cc(C)c1Oc1ccnc(Nc2ccc(C#N)cc2)n1 | IIIB | K103N | MT-4 | MTT |  | 0.059 µM
Nc1nc(=O)n([C@@H]2CS[C@H](CO)O2)cc1F | 184V (RT-M184V) | RT-M184V | HT4 + HT4 LacZ-1 |  |  | >500 µM
Cc1ccc(-n2c(C)nnc2SCC(=O)Nc2cccc(C)c2C)cc1 | NL4-3 | RT-K103N Y181C | HeLa + HeLa-JC53 | luciferase |  | >10 µM
C=C1OC(C(=O)O)C(/C(=C/C(=O)O)C(=O)OC2C3COC(=O)c4cc(O)c(O)c(O)c4-c4c(cc(O)c(O)c4O)C(=O)OC2C(O)C(OC(=O)c2cc(O)c(O)c(O)c2)O3)c2c1cc(O)c(O)c2O |  |  | SupT1 + Sup-T1 | cytopathic effect |  | 4.5 µM
Cc1cc(C#Cc2cccc(N)c2)cc(C)c1Oc1ccnc(Nc2ccc(C#N)cc2)n1 | IIIB | RES056 | MT-4 | MTT |  | >5.005 µM
Cc1cc(Cl)cc(S(=O)(=O)c2cccc(N)c2C#N)c1 |  | RT-Y181C | HeLa + HELA CD4+ | β-galactosidase |  | 10 µM
Cc1ccnc2c1NC(=O)c1cccnc1N2C1CC1 | IIIB | Y188L | MT-4 | MTT |  | 4.416 µM
COc1ccc(-c2c3c(cc4cc(OC)c(OC)cc24)CN(C(C)C)C3)cc1OC | CONB/pNL43E-Luc+ |  | U87 (CD4+ CCR5+) + U87 | luciferase |  | 1.07 µg/mL
C[N+]1(Cc2ccc(NC(=O)C3=Cc4cc(-c5ccccc5)ccc4CC3)cc2)CCCCC1 | JR-FL |  | MAGI + MAGI-CCR5 | β-galactosidase |  | 1.2 µM
CCCc1cc(=O)oc2c3c(c4c(c12)OC(C)(C)C=C4)O[C@H](C)[C@@H](C)[C@@H]3O | E BPTU-resistant (RT Y181C) | RT-Y181C | CEM + CEM-SS | XTT |  | 0.1 µM
CC(C)(C)NC(=O)[C@@H]1CN(Cc2cccnc2)CCN1C[C@@H](O)C[C@@H](Cc1ccccc1)C(=O)N[C@H]1c2ccccc2C[C@H]1O | 56252-1 NRTI resistant recombinant | RT-T69K K70G V75I F77L F116Y Q151M M184V | PBMC | RT activity |  | 0.0037 µM
C[C@H](Cn1cnc2c(N)ncnc21)OCP(=O)(O)O | NL4-3 |  | Primary T lymphocytes |  |  | 1.949 µM
N#CC1C=Cc2ccccc2C1C(=O)/C=C/c1ccccc1 | NL4-3 | WT | HeLa CD4 | β-galactosidase |  | 0.172 µM
Nc1nc(=O)n([C@@H]2CS[C@H](CO)O2)cc1F | NL4-3 | A114S/M184V/A502V | TZM-gfp | GFP |  | >100 µM
CCCc1cc(=O)oc2c3c(c4c(c12)OC(C)(C)C=C4)O[C@@H](C)[C@H](C)[C@@H]3O | IIIB |  | AA5 | XTT |  | 1.4 µM

A second listing of 8 rows from above:

SMILES,strain,mutations,cell line,read by,setting,result
Cc1cn([C@H]2C[C@H](N=[N+]=[N-])[C@@H](CO)O2)c(=O)[nH]c1=O,NL4.3-XCS,188L-190A (nevirapine-resistant),HeLa CD4,β-galactosidase,,0.113 µM
CN(C)c1ccc(Nc2c3ccc(NC(=O)CCN4CCCC4)cc3nc3cc(NC(=O)CCN4CCCC4)ccc23)cc1,,,HeLaP4,β-galactosidase,,8 µM
c1ccc(CNc2nc(-c3cccnc3)cs2)cc1,NL4.3-XCS,41-215 (AZT-resistant),HeLa CD4,β-galactosidase,,0.533 µM
N#CC1C=Cc2ccccc2C1C(=O)/C=C/c1ccccc1,NL4-3,WT,HeLa CD4,β-galactosidase,,0.172 µM
Nc1nc(NC2CC2)c2ncn([C@H]3C=C[C@@H](CO)C3)c2n1,NL4-3,,CEM-GFP,flow cytometry,,0.08975 µM
CCCc1cc(=O)oc2c3c(c4c(c12)OC(C)(C)C=C4)O[C@@H](C)[C@H](C)[C@@H]3O,IIIB,,AA5,XTT,,1.4 µM
Cc1ccc(-c2ccc3c(c2)C=C(C(=O)Nc2ccc(C[N+]4(C)CCCCC4)cc2)CCC3)cc1,JR-FL,,MAGI + MAGI-CCR5,β-galactosidase,,0.035 µM
Nc1ccn([C@H]2CC[C@@H](CO)O2)c(=O)n1,IIIB,,PBL,p24,,0.003 µM